Measured values from several laboratories, pooled; numbers as filed in NIAID ChemDB.

Shared fields: tests in culture; organism: Hepatitis B virus

Blank or dashed fields: not listed here.

structure,measure,read by,cell line,setting,strain,result
COC(=O)[C@]12C3=C([C@H](C)O[C@H]1[C@@H]1C4=C(C(=O)OCC4=C[C@@]45C6=C(C(=O)OCC6)[C@@H](C[C@@H]14)OC5C)[C@H]2O)[C@@H](O)OCC3,EC50,PCR,HepG2.2.15,,,1.53 µM
COc1ccc(-n2c(C(=O)NCc3ccccc3)c3n(c2=O)C[C@@H](C)N(C(=O)c2ccc(Br)c(Cl)c2)C3)cc1,EC50,PCR,HepG2.117,,,0.5–5 µM
COC(=O)C1=C(CN2CCN(C(=O)OC)CC2)NC(c2ncccc2F)=NC1c1ccc(F)cc1Br,EC50,,HepG2.2.15,,,0.08 µM
C[C@@H](NC(=O)C(=O)N1CC2(COc3c(cn(C)c3C(=O)Nc3ccc(F)c(C(F)F)c3)S(=O)(=O)N2)C1)C(F)(F)F,EC50,PCR,HepAD38,,Genotype D,<0.5 µM
O=C1COc2cc(-n3c(C(=O)NCc4ccccc4)c4n(c3=O)CCN(C(=O)c3ccc(Br)c(Cl)c3)C4)ccc2N1,EC50,PCR,HepG2.117,,,0.5–5 µM
CCOC(=O)[C@H](C)NP(=O)(OC[C@@H]1OC[C@H](n2cnc3c(Cl)nc(N)nc32)O1)Oc1ccccc1,EC90,,AD38,,Wild,6.8 µM
Cc1ccn(-c2ccc(-n3c(C(=O)NCc4ccccc4)c4n(c3=O)CCN(C(=O)c3ccc(Br)c(Cl)c3)C4)cc2)n1,EC50,PCR,HepG2.117,,,0.1–0.5 µM
C[C@@H](NC(=O)C(=O)N1CC2(COc3c(cn(C)c3C(=O)Nc3ccc(F)c(Cl)c3)S(=O)(=O)N2)C1)C(F)(F)F,EC50,PCR,HepAD38,,Genotype D,<0.5 µM
COC(=O)C1=C(CN2CCN(c3ncc(F)cn3)CC2)NC(c2ncc(F)cc2F)=N[C@H]1c1ccc(F)cc1Cl,EC50,,HepG2.2.15,,,0.031 µM
CNC(=O)c1ccc(-n2c(=O)c3c(n4ncc(N[C@@H](C)c5ccccc5)c24)CN(C(=O)c2ccc(Br)c(Cl)c2)CC3)cc1,EC50,PCR,HepG2.117,3 d,,<0.1 µM
CCOC(=O)[C@H](C)NP(=O)(OC[C@@H]1OC[C@H](n2cnc3c(NC4CC4)nc(N)nc32)O1)Oc1ccccc1,EC50,,AD38,,Wild,<10 µM
COc1ccc(-n2c(C(=O)N[C@@H]3CCc4ccccc43)c3n(c2=O)CCN(C(=O)c2ccc(Br)c(Cl)c2)C3)cc1,EC50,PCR,HepG2.117,,,0.5–5 µM
COC(=O)C1=C(CN2[C@@H]3CC[C@@H]2COC3)NC(c2ncc(F)cc2F)=N[C@H]1c1ccc(F)cc1Cl,EC50,,HepG2.2.15,,,0.015 µM
COC(=O)[C@H](C)NP(=O)(OCC1C/C1=C/n1cnc2c(N)ncnc21)Oc1ccccc1,EC50,,2.2.15,,,0.01 µM
COC(=O)C1=C(CN2CCN(C(=O)Oc3ccccc3)CC2)NC(c2ncccc2F)=N[C@H]1c1ccc(F)cc1Br,EC50,,HepG2.2.15,,,0.04 µM
CCOC(=O)[C@H](C)NP(=O)(OC[C@@H]1OC[C@H](n2cnc3c(=O)[nH]c(N)nc32)O1)Oc1ccccc1,EC50,,AD38,,Wild,0.1 µM
CCc1cc(OC)ccc1CNC(=O)c1c2n(c(=O)n1-c1ccc(OC)cc1)CCN(C(=O)c1ccc(Br)c(Cl)c1)C2,EC50,PCR,HepG2.117,,,0.1–0.5 µM
COC(=O)[C@H](C)NP(=O)(OC[C@H]1C/C1=C/n1cnc2c(OC)nc(N)nc21)Oc1ccccc1,EC50,,2.2.15,,,2 µM
COC(=O)[C@]12C3=C([C@H](C)O[C@H]1[C@@H]1C4=C(C(=O)OCC4=C[C@@]45C6=C(C(=O)OCC6)[C@@H](C[C@@H]14)OC5C)[C@H]2O)[C@H](O)OCC3,EC50,PCR,,,,1.53 µM
C[C@H](NC(=O)C(=O)N1CCC2(CC1)COc1c(cn(C)c1C(=O)Nc1ccc(F)c(Cl)c1)S(=O)(=O)N2)C(F)(F)F,EC50,PCR,HepAD38,,Genotype D,<0.5 µM
[N-]=[N+]=N[C@]1(CO)O[C@@H](n2ccc(NO)nc2=O)[C@@H](F)[C@@H]1O,EC50,ELISA / antigen,HepG2.2.15,,,>1 µM
COC(=O)[C@H](C)NP(=O)(OC[C@H]1C/C1=C/n1cnc2c(N)nc(N)nc21)Oc1ccccc1,EC50,,CEM,,,>50 µM
Nc1nc2c(ncn2[C@H]2CO[C@@H](CO)O2)c(=O)[nH]1,EC90,,AD38,,Wild,>100 µM
CS(=O)(=O)c1ccc(-n2c(C(=O)NCc3ccccc3)c3n(c2=O)CCN(C(=O)c2ccc(Br)c(Cl)c2)C3)cc1,EC50,PCR,HepG2.117,,,0.5–5 µM
O=C(O[C@@H]1Cc2c(O)cc(O)cc2O[C@@H]1c1cc(O)c(O)c(O)c1)c1cc(O)c(O)c(O)c1,EC50,ELISA,HepG2.117,,,39.4 µM
N#Cc1cc(C(=O)N2CCc3c(n4ncc(Cc5ccccc5)c4n(-c4ccc(-n5cccn5)cc4)c3=O)C2)ccc1Br,EC50,PCR,HepG2.117,3 d,,>5 µM
COC(=O)C1=C(CN2CCN(c3ncccn3)CC2)NC(c2ncc(F)cc2F)=N[C@H]1c1ccc(F)cc1Cl,EC50,,HepG2.2.15,,,0.03 µM
Nc1nc(=O)n([C@@H]2C=C[C@H](CO)O2)cc1F,EC50,,HepG2.2.15,,,20 µM
Nc1nc2c(ncn2C=C2CC2CO)c(=O)[nH]1,EC50,,2.2.15,,,10 µM
C[C@H]1Cn2c(c3n(c2=O)C[C@@H](F)CN(Cc2ccccc2)C3=O)CN1C(=O)c1ccc(Br)c(Cl)c1,EC50,PCR,HepG2.117,,,<0.1 µM
C[C@@H](NC(=O)C(=O)N1CC[C@@]2(COc3c(cn(C)c3C(=O)Nc3ccc(F)c(C(F)F)c3)S(=O)(=O)N2)C1)C(F)(F)F,EC50,PCR,HepAD38,,Genotype D,<0.5 µM
CNC(=O)c1ccc(-n2c(=O)c3c(n4ncc(Cc5ccc(C#N)cc5)c24)CN(C(=O)c2ccc(Cl)c(Cl)c2)CC3)cc1,EC50,PCR,HepG2.117,3 d,,<0.1 µM
C[C@H](NC(=O)c1c2n(c(=O)n1-c1ccc(OC3CC3)cc1)C[C@H](C)N(C(=O)c1ccc(Br)c(Cl)c1)C2)c1ccccc1F,EC50,PCR,HepG2.117,,,0.1–0.5 µM
CC1O[C@@H]2C[C@H]3[C@H]4C5=C(C(=O)OCC5=C[C@]13C1=C2C(=O)OCC1)[C@@H](O)[C@]12C(=O)OCCC1=C(C=O)[C@@H](C)O[C@H]42,EC50,ELISA / antigen,HepG2.2.15,,,440 µM

3 of the rows above, restated:

structure	measure	read by	cell line	setting	strain	result
COc1ccc(-n2c(C(=O)N[C@@H]3CCc4ccccc43)c3n(c2=O)CCN(C(=O)c2ccc(Br)c(Cl)c2)C3)cc1	EC50	PCR	HepG2.117			0.5–5 µM
COC(=O)C1=C(CN2CCN(c3ncccn3)CC2)NC(c2ncc(F)cc2F)=N[C@H]1c1ccc(F)cc1Cl	EC50		HepG2.2.15			0.03 µM
COC(=O)[C@]12C3=C([C@H](C)O[C@H]1[C@@H]1C4=C(C(=O)OCC4=C[C@@]45C6=C(C(=O)OCC6)[C@@H](C[C@@H]14)OC5C)[C@H]2O)[C@H](O)OCC3	EC50	PCR				1.53 µM

a–b is a range or a potency band. Rows are shuffled and stem from different studies. ECn: concentration that inhibits the pathogen or its effect by n%.